Values from PubChem BioAssay AID624099 (ICCB-Longwood, 2012)
In all, the deposit lists about 21,000 reagents; this is a random part of them. 497 of them (2.4%) were called active. 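Higher z means weaker E2 silencing; only reporter increases were scored, and knock-downs that hurt cell survival may mask genuine repressor factors.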 Reagents against one gene are numbered here.

Aim: 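Human genes that papillomavirus E2 requires to repress the HPV18 LCR promoter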 (primary screen)
Cells: human C33A cervical carcinoma cells (HPV-negative) stably expressing BPV1 E2 and an HPV18 LCR luciferase reporter
Reagents: siRNA pool against human genes, 40 nM
Timing: 72 h
Read-out: 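HPV18 LCR reporter light per well, converted to plate-wise z-scores that exclude control wells, and averaged over triplicate plates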
Direction: mean z-score and z-score: higher = stronger reporter signal, weaker E2 silencing
Call rule: 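Hit if mean z-score reaches 2 and two or more of three replicate z-scores also reach 2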

target gene	reagent no.	mean z-score	z-score, replicate A	z-score, replicate B	z-score, replicate C	Call
CARMIL1 (capping protein regulator and myosin 1 linker 1)	1	0.33	-0.05	0.89	0.14	inactive
RNPS1 (RNA binding protein with serine rich domain 1)	1	0.29	0.15	0.44	0.29	inactive
TOR1A (torsin family 1 member A)	1	-0.18	0.06	-0.38	-0.22	inactive
BBS10 (Bardet-Biedl syndrome 10)	1	-0.28	-0.28	-0.59	0.02	inactive
TCF21 (transcription factor 21)	1	-1.21	-1.09	-1.26	-1.29	inactive
RLN1 (relaxin 1)	1	0.17	0.06	0.19	0.25	inactive
RPS6KA6 (ribosomal protein S6 kinase A6)	1	-0.69	-0.86	-0.5	-0.72	inactive
TSEN2 (tRNA splicing endonuclease subunit 2)	1	0.09	-0.16	0.16	0.26	inactive
RNF207 (ring finger protein 207)	1	1.27	1	1.35	1.46	inactive
RNF207 (ring finger protein 207)	2	3.95	4.67	3.88	3.32	active
LGALS3BP (galectin 3 binding protein)	1	-0.65	-0.81	-0.49	-0.66	inactive
FOLH1B (folate hydrolase 1B (pseudogene))	1	-0.07	0.53	0.14	-0.87	inactive
SPIN1 (spindlin 1)	1	0.93	0.61	1.15	1.04	inactive
KCNK18 (potassium two pore domain channel subfamily K member 18)	1	0.02	0.02	0.18	-0.15	inactive
FOXQ1 (forkhead box Q1)	1	-1.19	-0.9	-1.48	-1.2	inactive
VPS11 (VPS11 core subunit of CORVET and HOPS complexes)	1	-0.53	-0.86	-0.42	-0.33	inactive
SERPINB5 (serpin family B member 5)	1	-0.18	-0.29	-0.06	-0.2	inactive
GPR83 (G protein-coupled receptor 83)	1	0.08	0.12	0.01	0.11	inactive
C22orf42 (chromosome 22 open reading frame 42)	1	0.74	0.68	0.78	0.75	inactive
LYSMD2 (LysM domain containing 2)	1	0.4	0.05	0.45	0.68	inactive
ACSM5 (acyl-CoA synthetase medium chain family member 5)	1	0.63	0.69	0.87	0.32	inactive
GH1 (growth hormone 1)	1	1.29	1.23	1.45	1.19	inactive
ALOX12 (arachidonate 12-lipoxygenase, 12S type)	1	0.51	0.26	0.66	0.62	inactive
C12orf43 (chromosome 12 open reading frame 43)	1	1.67	1.83	1.66	1.52	inactive
KISS1R (KISS1 receptor)	1	-0.65	-0.7	-0.77	-0.48	inactive
ST7L (suppression of tumorigenicity 7 like)	1	0.16	0.22	0.06	0.22	inactive
S100P (S100 calcium binding protein P)	1	4.06	4.27	4.27	3.64	active
MYO19 (myosin XIX)	1	2.12	1.96	2.24	2.16	active
NMT2 (N-myristoyltransferase 2)	1	-0.24	-0.29	-0.21	-0.23	inactive
SHTN1 (shootin 1)	1	0.68	0.7	0.72	0.62	inactive
LOC387981 (retired record)	1	0.83	0.61	0.95	0.93	inactive
MYO3B (myosin IIIB)	1	-0.05	0.19	-0.31	-0.02	inactive
MCEMP1 (mast cell expressed membrane protein 1)	1	-1.41	-1.22	-1.07	-1.94	inactive
E2F5 (E2F transcription factor 5)	1	-0.1	-0.34	-0.03	0.06	inactive
IQGAP1 (IQ motif containing GTPase activating protein 1)	1	1.93	1.78	2.02	2	inactive
LOC401553 (retired record)	1	-0.43	-0.66	-0.13	-0.5	inactive
RARRES1 (retinoic acid receptor responder 1)	1	1.51	1.48	1.8	1.26	inactive
LOC390349 (retired record)	1	-0.72	-0.29	-0.56	-1.29	inactive
SLC25A42	1	-0.49	-0.68	-0.7	-0.07	inactive

6 of these entries in another layout:
ST7L (suppression of tumorigenicity 7 like): mean z-score = 0.16; z-score, replicate A = 0.22; z-score, replicate B = 0.06; z-score, replicate C = 0.22; Call = inactive
S100P (S100 calcium binding protein P): mean z-score = 4.06; z-score, replicate A = 4.27; z-score, replicate B = 4.27; z-score, replicate C = 3.64; Call = active
MYO19 (myosin XIX): mean z-score = 2.12; z-score, replicate A = 1.96; z-score, replicate B = 2.24; z-score, replicate C = 2.16; Call = active
NMT2 (N-myristoyltransferase 2): mean z-score = -0.24; z-score, replicate A = -0.29; z-score, replicate B = -0.21; z-score, replicate C = -0.23; Call = inactive
SHTN1 (shootin 1): mean z-score = 0.68; z-score, replicate A = 0.7; z-score, replicate B = 0.72; z-score, replicate C = 0.62; Call = inactive
LOC387981 (retired record): mean z-score = 0.83; z-score, replicate A = 0.61; z-score, replicate B = 0.95; z-score, replicate C = 0.93; Call = inactive
